Measured values from several laboratories, pooled; numbers as filed in NIAID ChemDB.

Common to all: tests in culture; agent: HIV-1

An empty or dashed field is not shown. Lines come from different laboratories, so protocols vary. ECn is the concentration giving n% inhibition of infection, replication or growth.

compound | cell line | measure | method | mutations | strain | value
CCOC(=O)CN(CC)S(=O)(=O)c1cc(Cl)ccc1[N+](=O)[O-] | MT-4 | EC50 | cytopathic effect / MTT | - | - | >200 µM
Nc1ccn([C@H]2CC[C@@H](COC(=O)C(=O)N3CCCC3C(=O)N[C@H](Cc3ccccc3)C(=O)OCc3ccccc3)O2)c(=O)n1 | MOLT-4 (HIV-1 IIIB) / M8166 + MOLT-4 | EC50 | syncytia | - | IIIB | >150 µM
O=C(NC1CC1)c1ccc(B(O)O)cc1 | CEM | EC50 | syncytia | - | IIIB | >250 µM
CC(C)=CCN1Cc2cccc3[nH]c(=S)n(c23)C[C@@H]1C | CEM | EC50 | - | RT-E138K | TSAO-m3T-resistant (RT E138K) | 0.07 µM
O=S1(c2ccccc2)=NC(=S)Nc2ccc(Cl)cc21 | CEM + CEM-SS | EC50 | cytopathic effect / XTT | - | IIIB | 0.16 µM
Nc1ncnc2c1ncn2[C@H]1CC[C@@H](CO)O1 | MT-4 | EC50 | antigen | - | IIIB | 10 µM
COc1ccc(-c2cncc3sc(C(N)=O)cc23)cc1 | U1 | EC50 | p24 / ELISA | - | - | 0.011 µM
Nc1ccn([C@H]2CC[C@@H](CO)O2)c(=O)n1 | MT-4 | EC50 | cytopathic effect / MTT | - | IIIB | 0.048 µg/mL
CC(C)=CCN1C(C)C(=S)Nc2ccc(Cl)cc2S1(=O)=O | MT-4 | EC50 | cytopathic effect / MTT | - | - | 4.6 µM
CC(C)(C)NC(=O)[C@@H]1C[C@@H]2CCCC[C@@H]2CN1C[C@@H](O)[C@H](Cc1ccccc1)NC(=O)[C@H](CC(N)=O)NC(=O)c1ccc2ccccc2n1 | JM | EC50 | p24 | - | GBB | <0.001 µg/mL
CC(C)=CCc1cc(-c2oc3cc(O)cc(O)c3c(=O)c2O)ccc1O | MOLT-4/OKM-1(HIV-1) + MOLT-4 | EC50 | syncytia | - | - | <20 µg/mL
Cc1ccccc1CN1C(C)C(=S)Nc2ccc(Cl)cc2S1(=O)=O | MT-4 | EC50 | cytopathic effect / MTT | - | - | >200 µM
O=Cc1ccc(B(O)O)cc1 | CEM | EC50 | syncytia | - | IIIB | >50 µM
NC(=O)c1cc2c(-c3ccc4c(c3)CCO4)cncc2s1 | PBMC | EC50 | p24 / ELISA | - | LAI | 0.291 µM
Cc1cn([C@H]2C[C@H](N=[N+]=[N-])[C@@H](CO)O2)c(=O)[nH]c1=O | MT-4 | EC50 | cytopathic effect / MTT | - | NL4-3 | 0.0002 µg/mL
Cc1cc(C)cc(CN2C(C)C(=O)Nc3ccc(Cl)cc3S2(=O)=O)c1 | MT-4 | EC50 | cytopathic effect / MTT | - | - | 0.12 µM
Cc1cn([C@H]2C[C@H](N=[N+]=[N-])[C@@H](COC(=O)C(=O)N3CCCC3C(=O)N[C@H](Cc3ccccc3)C(=O)OCc3ccccc3)O2)c(=O)[nH]c1=O | MOLT-4 (HIV-1 IIIB) / M8166 + MOLT-4 | EC50 | syncytia | - | IIIB | >150 µM
O[C@H]1[C@H](O)[C@@H](O)CN2CC[C@H](O)[C@H]12 | MT-4 | EC50 | cytopathic effect / MTT | - | IIIB | 126 µg/mL
COc1c2c(cc3oc(=O)c(-c4ccc(O)cc4O)cc13)OC(C)(CO)CC2 | MOLT-4/OKM-1(HIV-1) + MOLT-4 | EC50 | syncytia | - | - | <20 µg/mL
O=CN(CCC(=O)O)c1ccc(B(O)O)cc1 | CEM | EC50 | syncytia | - | IIIB | >250 µM
Cc1cc2c(N)c(C(N)=O)sc2nc1-c1ccc(F)cc1 | U1 | EC50 | p24 / ELISA | - | - | 6.19 µM
Cc1cn([C@H]2C[C@H](N=[N+]=[N-])[C@@H](COC(=O)C(=O)N3CCCC3C(=O)N[C@@H](Cc3ccccc3)C(=O)OCc3ccccc3)O2)c(=O)[nH]c1=O | MT-4 | EC50 | antigen | - | IIIB | 0.022 µM
Fc1cccc(F)c1C1SCc2nc3ccccc3n21 | CEM + CEM-SS | EC50 | cytopathic effect / XTT | - | RF | 1.22 µM
CCN(CC)C(=O)c1ccc(B(O)O)cc1 | CEM | EC50 | syncytia | - | IIIB | >250 µM
C[C@H](Cn1cnc2c(N)ncnc21)OCP(=O)(O)O | - | EC50 | p24 / ELISA | - | ETH2220 | 0.72 µM
O=S(=O)(O)OCC1OC2OC3C(COS(=O)(=O)O)OC(OC4C(COS(=O)(=O)O)OC(OC5C(COS(=O)(=O)O)OC(OC6C(COS(=O)(=O)O)OC(OC7C(COS(=O)(=O)O)OC(OC8C(COS(=O)(=O)O)OC(OC9C(COS(=O)(=O)O)OC(OC1C(OS(=O)(=O)O)C2OS(=O)(=O)O)C(OS(=O)(=O)O)C9OS(=O)(=O)O)C(OS(=O)(=O)O)C8OS(=O)(=O)O)C(OS(=O)(=O)O)C7OS(=O)(=O)O)C(OS(=O)(=O)O)C6OS(=O)(=O)O)C(OS(=O)(=O)O)C5OS(=O)(=O)O)C(OS(=O)(=O)O)C4OS(=O)(=O)O)C(OS(=O)(=O)O)C3OS(=O)(=O)O | MT-4 | EC50 | cytopathic effect / MTT | - | NL4-3 | 1.7 µg/mL
CCc1cc(NCc2nc3c(Cl)ccc(Cl)c3o2)c(=O)[nH]c1C | MT-4 | EC50 | p24 / ELISA | - | IIIB | <0.05 µM
Cc1cn([C@H]2C=C[C@@H](CO)O2)c(=O)[nH]c1=O | MT-4 | EC90 | cytopathic effect / MTT | - | IIIB | 4.2 µM
NC(=O)c1sc2cncc(N3CCC(C(N)=O)CC3)c2c1N | U1 | EC50 | p24 / ELISA | - | - | 0.391 µM
CCN1CCn2c(=O)[nH]c3cc(Cl)cc(c32)S1(=O)=O | MT-4 | EC50 | cytopathic effect / MTT | - | - | >200 µM
COC(=O)[C@H](C)NP(=O)(OC[C@H]1O[C@@H](N2C(=O)NC(=O)C(C)(Br)C2OC)C[C@@H]1N=[N+]=[N-])Oc1ccc(Br)cc1 | PBMC | EC50 | p24 | - | IIIB | 0.005 µM
O=C(O)C1=CC(=C(c2ccc(O)c(C(=O)O)c2)c2ccc(O)c(C(=O)O)c2)C=CC1=O | C8166 | EC50 | p24 | - | RF | 7 µg/mL
Nc1nc2c(ncn2[C@H]2CC[C@@H](CO)O2)c(=O)[nH]1 | CEM | EC50 | - | - | IIIB | 1.1 µM
C[C@H](CCC(=O)NCCS(=O)(=O)O)[C@H]1CC[C@H]2[C@@H]3CC[C@@H]4C[C@H](O)CC[C@]4(C)C3CC[C@]12C | MT-4 | EC50 | cytopathic effect / MTT | - | IIIB | 102 µg/mL
CC(=O)c1ccc(C)cc1NC(C(N)=O)c1c(Cl)cccc1Cl | MT-4 | EC50 | MTT | - | IIIB | 0.0009 µg/mL
COc1ccc(Cc2nccc3cc(OC)c(OC)cc23)cc1OC | C8166 | EC50 | p24 | - | RF | >5 µg/mL
CN(C)c1ccnc2sc(C(N)=O)c(N)c12 | 293T | EC50 | p24 / ELISA | - | - | 0.53 µM
CC(C)(C)OC(=O)[C@@H]1CCCN1C[C@@H](O)[C@H](Cc1ccccc1)NC(=O)[C@H](CC(N)=O)NC(=O)OCc1ccccc1 | JM | EC50 | p24 | - | GBB | 0.5 µg/mL
Cc1cn([C@H]2C[C@H](N=[N+]=[N-])[C@@H](CO)O2)c(=O)[nH]c1=O | MT-4 | EC95 | p24 / ELISA | - | IIIB | 0.025 µM
OCc1ccccc1B(O)O | CEM | EC50 | syncytia | - | IIIB | >50 µM
Cc1cn([C@H]2C[C@H](N=[N+]=[N-])[C@@H](CO)O2)c(=O)[nH]c1=O | CEM | EC50 | antigen | - | I-232 | <0.01 µM
O=S1(c2ccccc2)=NC(=S)Nc2ccccc21 | CEM + CEM-SS | EC50 | cytopathic effect / XTT | - | SK1 | 0.99 µM
CC(C)(C)NC(=O)[C@@H]1C[C@@H]2CCCC[C@@H]2CN1C[C@@H](O)[C@H](Cc1ccccc1)NC(=O)O[C@H]1CCS(=O)(=O)C1 | MT-4 | EC50 | p24 | - | IIIB | <0.364 µM
CCN(CC(=O)O)S(=O)(=O)c1cc(Cl)ccc1N | MT-4 | EC50 | cytopathic effect / MTT | - | - | >200 µM
CC(C)CC(NC(=O)C(Cc1ccccc1)NC(=O)C(N)CO)C(=O)NC(C(=O)O)C(C)O | MOLT-4 (HIV-1 IIIB) / M8166 + MOLT-4 | EC50 | syncytia | - | IIIB | 158 µM
C[C@@H]1C(=O)Nc2ccc(Cl)cc2S(=O)(=O)N1Cc1c(F)cccc1F | MT-4 | EC50 | cytopathic effect / MTT | - | - | 0.2 µM
NC(=O)c1cc2c(-c3cnc4ccccc4c3)cncc2s1 | Jurkat cells | EC50 | p24 / ELISA | - | NL4-3 | 0.0064 µM
Cc1cn([C@H]2C[C@H](N=[N+]=[N-])[C@@H](CO)O2)c(=O)[nH]c1=O | PBMC | EC50 | p24 | - | 14a-Pre | 0.0053 µM
NC(=O)c1cc2c(-c3ccc4ccccc4c3)cncc2s1 | U1 | EC50 | p24 / ELISA | - | - | 0.0089 µM
C[C@@H]1CS(=O)(=O)C[C@@H]1OC(=O)N[C@@H](Cc1ccccc1)[C@H](O)CN1C[C@H]2CCCC[C@H]2C[C@H]1C(=O)NC(C)(C)C | MT-4 | EC50 | p24 | - | IIIB | <0.8 µM
Cc1ccnc2c1NC(=O)c1cccnc1N2C1CC1 | CEMx174 + CEM | EC50 | cytopathic effect / XTT | - | IIIB | 0.1 µM
Nc1ncnc2c1ncn2[C@H]1CC[C@@H](CO)O1 | MT-4 | EC50 | syncytia | - | IIIB | 5.27 µM
CC(C)[C@H]1[C@@H](OC(=O)N[C@@H](Cc2ccccc2)[C@H](O)CN2C[C@H]3CCCC[C@H]3C[C@H]2C(=O)NC(C)(C)C)CCS1(=O)=O | MT-4 | EC50 | p24 | - | IIIB | <0.2 µM
NC(=O)c1cc2c(-c3cccc(-c4ccccc4)c3)cncc2s1 | U1 | EC50 | p24 / ELISA | - | - | 0.368 µM
COC(=O)[C@H](C)NP(=O)(OC[C@@H]1C=C[C@H](n2cnc3c(N)ncnc32)O1)Oc1ccccc1 | CEM | EC50 | syncytia | - | IIIB | 0.006 µM
CCc1cc(NCc2nc3c(C)ccc(C)c3o2)c(=O)[nH]c1C | H9 | EC50 | p24 / ELISA | - | IIIB | <0.15 µM
CC(C)=CCn1c(=O)n2c3c(cc(Cl)cc31)S(=O)(=O)NC(C)C2 | MT-4 | EC50 | cytopathic effect / MTT | - | - | >91 µM
C[C@@H]1C[C@H](OC(=O)N[C@@H](Cc2ccccc2)[C@H](O)CN2C[C@H]3CCCC[C@H]3C[C@H]2C(=O)NC(C)(C)C)CS1(=O)=O | MT-4 | EC95 | p24 | - | IIIB | >0.4 µM

4 of the rows above, restated:

compound,cell line,measure,method,mutations,strain,value
O[C@H]1[C@H](O)[C@@H](O)CN2CC[C@H](O)[C@H]12,MT-4,EC50,cytopathic effect / MTT,-,IIIB,126 µg/mL
CCN(CC)C(=O)c1ccc(B(O)O)cc1,CEM,EC50,syncytia,-,IIIB,>250 µM
CC(C)(C)OC(=O)[C@@H]1CCCN1C[C@@H](O)[C@H](Cc1ccccc1)NC(=O)[C@H](CC(N)=O)NC(=O)OCc1ccccc1,JM,EC50,p24,-,GBB,0.5 µg/mL
CC(C)[C@H]1[C@@H](OC(=O)N[C@@H](Cc2ccccc2)[C@H](O)CN2C[C@H]3CCCC[C@H]3C[C@H]2C(=O)NC(C)(C)C)CCS1(=O)=O,MT-4,EC50,p24,-,IIIB,<0.2 µM